Measurements taken from patent publication US20150299272.

System: Caf1QDGN76RGDS mutant, Yersinia pestis
Test: SDS-PAGE after partial heat dissociation (self-association)

## Caf1QDGN76RGDS mutant
  result: binds
